From publication PMC9880977 (Computational and Structural Biotechnology Journal, 2023) come the findings set out here.

The subject of the series is Nc1ccccc1N. The experiment in a line: purified protein. Conditions: 100 mM citrate-phosphate pH 4, air O2.

Turning to “HaLF (Heterobasidion irregulare TC 32-1; A247E/F364D)”, the Km came to 910 ± 200 µM and the kcat was determined as 6.6 ± 0.5 s⁻¹.
